Test results published in patent US20250382332A1, “NOVEL ALPHA-FACTOR BASED PEPTIDES WITH ANTIFUNGAL ACTIVITY” (INVAIO SCIENCES, INC., priority 2024, published 2025).

System: Botrytis cinerea (B05.10)
Experiment: Resazurin antifungal assay of 23 alpha-factor peptides (dimers, hybrids) towards Botrytis (Example 15, Table 6)
Format: cell-based
Conditions: % inhibition of fungal growth
Protocol: The antifungal activity of […] alpha-factor peptide variants towards Botrytis was tested. Experimental design:
Peptides corresponding to SEQ ID NO: 261-264 and 401-420 were chemically synthesized using the solid-phase synthesis method and resuspended in water to a stock solution of 1 mM. The stock solution was aliquoted in cryovials and stored at −80° C.
The Botrytis cinerea culture (B05.10) isolate was acquired from the Centraalbureau voor Schimmelcultures, the Netherlands. The Botrytis fungus was propagated on 0.5% V8 agar plates (200 ml V8 Juice, 3 g CaCO3, 15 g agar, 800-ml millipore water) at 20° C., in a 12 h photoperiod for 21 days.
Fungal conidia were harvested by scraping a Botrytis plate flooded with 1 ml water with 0.1% Tween 80 solution. Conidia were then collected in a 50 ml falcon tube by passing the solution through a 40 micron filter. The solution was then centrifuged at 6000 rpm and the pellet was resuspended in 1 ml of 20% glycerol. The conidia concentration of the resulting solution was counted using a hemocytometer. […]
Peptides were tested for activity against Botrytis, using the resazurin assay. […] Fluorescence was measured at 570/620 nm after 4 h of incubation with resazurin.
Growth inhibition was calculated by subtracting the fluorescence values of conidia only wells from sample wells and depicted as % inhibition of fungal growth. […]

For `CSCC[C@H](NC(=O)[C@@H]1CCCN1C(=O)[C@H](CCC(N)=O)NC(=O)CNC(=O)[C@@H]1CCCN1C(=O)[C@H](CCCCN)NC(=O)[C@H](CC(C)C)NC(=O)[C@H](CCC(N)=O)NC(=O)[C@H](CC(C)C)NC(=O)[C@H](Cc1c[nH]c2ccccc12)NC(=O)[C@H](Cc1c[nH]cn1)NC(=O)[C@H](Cc1c[nH]c2ccccc12)NC(=O)[C@H](CCCNC(=N)N)NC(=O)[C@H](CCCNC(=N)N)NC(=O)[C@H](CCCNC(=N)N)NC(=O)[C@H](CCCNC(=N)N)NC(=O)[C@H](CCCNC(=N)N)NC(=O)[C@H](CCCNC(=N)N)NC(=O)[C@H](CCCNC(=N)N)NC(=O)[C@@H](N)CCCNC(=N)N)C(=O)N[C@@H](Cc1ccc(O)cc1)C(=O)O` [compound 419], the “Inhibition at 50 μM” value (peptide 50 μM) was 100% and the “Inhibition at 100 μM” value (peptide 100 μM) was 100%.
